Compound potency records, mixed from different reports. Data source: NIAID ChemDB in PubChem.

Shared fields: tests on isolated targets

Conditions beyond the fields shown may differ between rows.

structure	method	changes	protein	tested at	strain	measure	organism	result
Cc1ccccc1-c1cncc(N2CCN(c3ccncc3)CC2)n1			UL97 kinase	10 µM		inhibition	Cytomegalovirus	>15%
Cc1[nH]nc2c1C(c1cc(Cl)cc(Cl)c1)(C(C)C)C(C#N)=C(N)O2	absorbance		Serine hydroxymethyltransferase			IC50	Plasmodium falciparum	0.29 µM
C[C@H](CO)[C@@H](OC(=O)NCCCCCCN)[C@@H]1OC(C(=O)O)=C[C@H](N=C(N)N)[C@H]1NC(=O)O			Sialidase		Victoria	IC50	Influenza B virus	0.12 µM
Cc1[nH]nc2c1C(c1cc(Cl)cc(C#N)c1)(C(C)C)C(C#N)=C(N)O2	absorbance		Serine hydroxymethyltransferase			IC50	Plasmodium falciparum	0.52 µM
C/C(=N\NC(=S)NNC(=S)Nc1ccc(C(C)(C)C)cc1)c1ccccn1			Ribonucleotide reductase			IC50	Herpes simplex virus 1	>5 µM
Nc1nc(N)c2c(n1)CCC(Cc1cccc(OC(F)(F)F)c1)C2			Dihydrofolate reductase		TYPE 2	IC50	Cryptosporidium parvum	0.4 µM
C[C@H](CO)[C@@H](OC(=O)N(CCCN)CCCCN)[C@@H]1OC(C(=O)O)=C[C@H](N=C(N)N)[C@H]1NC(=O)O			Sialidase		Victoria	IC50	Influenza B virus	0.62 µM
CS(=O)(=O)CCCN1C(=O)c2ccccc2C(C(=O)c2ccccc2)C1=O			Protease		Serotype 14	IC50	Rhinovirus	25 µM
O=C(CCc1ccccc1)Nc1cn2ccn(Cc3cccc(Cl)c3)c(=O)c2c(O)c1=O	ELISA		Integrase			IC50	HIV-1	<0.01 µM
CC(C)=CCN1Cc2cccc3[nH]c(=S)n(c23)C[C@@H]1C	nucleotide incorporation	RT-W266S	Reverse transcriptase			fold resistance	HIV	>296
CN1C(=O)c2ccccc2C(CC(=O)c2ccc(F)cc2)C1=O			Protease		Serotype 14	IC50	Rhinovirus	41.1 µM
CC[C@H](C)[C@H](NC(=O)[C@@H]1CCCN1C(=O)[C@H](O)[C@H](Cc1ccccc1)NC(=O)[C@H](CC(N)=O)NC(=O)CCc1ccccc1)C(=O)N[C@H](C(N)=O)C(C)C			Protease	5 µM		inhibition	HIV-1	80.7%
FC(F)(F)c1cccc(N2CCN(c3cncc(-c4cc5ccccc5s4)n3)CC2)c1			UL97 kinase	1 µM		inhibition	Cytomegalovirus	<50%
CC(C)Nc1cn2ccn(Cc3cccc(Cl)c3)c(=O)c2c(O)c1=O	ELISA		Integrase			IC50	HIV-1	0.01–0.1 µM
O[C@@H]1[C@@H](O)[C@@H](NCc2ccc(-c3ccccc3)cc2)[C@H]2O[C@H]2[C@H]1O			Beta-D-xylosidase	100 µM		inhibition	Aspergillus niger	42%
CNC(=S)NNC(=S)N/N=C(\C)c1ccccn1			Ribonucleotide reductase			IC50	Herpes simplex virus 1	>5 µM
CC[C@@H](C)[C@H](NC(=O)[C@@H]1CCCN1C(=O)[C@@H](O)[C@H](CC1CCCCC1)NC(=O)[C@H](CC(N)=O)NC(=O)OCC1c2ccccc2-c2ccccc21)C(=O)N[C@H](C(N)=O)C(C)C			Protease	5 µM		inhibition	HIV-1	99%
Nc1nc(N)c2cc(Br)ccc2n1			DHFR			IC50	Pneumocystis carinii	1.6 µM
CSCCCN1C(=O)c2ccccc2C(CC(=O)c2ccccc2)C1=O			Protease		Serotype 2	IC50	Rhinovirus	8.4 µM
Nc1ccn([C@@H]2CS[C@H](COP(=O)(O)OP(=O)(O)OP(=O)(O)O)O2)c(=O)n1	radiometric	RT-L74V	Reverse transcriptase			Ki	HIV	0.354 µM
Oc1ccc(CN[C@@H]2[C@H](O)[C@@H](O)[C@H](O)[C@H]3O[C@@H]23)cc1			Amyloglucosidase	100 µM		inhibition	Aspergillus niger	54%
COc1ccc(N2C(N)=NC(N)=NC2(C)C)c(OC)c1OC			DHFR			IC50	Toxoplasma gondii	1.2 µM
C[C@H](CO)[C@@H](OC(=O)NCCSc1ncccn1)[C@@H]1OC(C(=O)O)=C[C@H](N=C(N)N)[C@H]1NC(=O)O			Sialidase		H3N2 AICHI	IC50	Influenza A virus	0.0062 µM
Cc1[nH]nc2c1C(c1cc(Cl)cc(-c3ccc(-c4nn[nH]n4)cc3)c1)(C1CCC1)C(C#N)=C(N)O2	absorbance		Serine hydroxymethyltransferase			IC50	Plasmodium falciparum	0.14 µM
Nc1nc(N)c2nc(Cc3cccc(C(F)(F)F)c3)c(Cc3cccc(C(F)(F)F)c3)nc2n1			Dihydrofolate reductase		TYPE 2	IC50	Cryptosporidium parvum	>10 µM
CCOc1ccc2ccccc2c1C(=O)Nc1nnc(NCCc2ccc(S(N)(=O)=O)cc2)s1			Polymerase			IC50	Human cytomegalovirus	>25 µM
CC(C)C(=O)N[C@H]1C([C@H](C)[C@@H](O)CO)OC(C(=O)O)=C[C@@H]1NS(=O)(=O)C(Cl)Cl			Neuraminidase		TYPE 1	IC50	Parainfluenza virus	1.2 µM
COc1cccc(N2CCN(c3cncc(-c4ccc(SC)cc4)n3)CC2)c1			UL97 kinase			IC50	Cytomegalovirus	<10 µM
CC(=O)CC1(O)c2c3[nH]c4ccccc4c3cc[n+]2C2C=CC=CC21	ELISA		p56lck tyrosine kinase	300 µM		inhibition		56%
C/C(=N\NC(=S)NNC(=S)Nc1ccc(Cl)cc1)c1ccccn1			Ribonucleotide reductase			IC50	Herpes simplex virus 1	<5 µM
O=C(O)c1ccc(N2C(=O)C(=Cc3ccc(-c4cccs4)o3)SC2=S)cc1			NS5 polymerase			IC50	Bovine viral diarrhea virus	≤1 µM
CCCCCCCNC(=O)O[C@@H]([C@@H]1OC(C(=O)O)=C[C@H](N)[C@H]1NC(=O)O)[C@H](C)CO			Sialidase		Victoria	IC50	Influenza B virus	1.95 µM
CC(=O)Nc1ccc(C(=O)O)cc1			DHPS	1000 µM		inhibition	Pneumocystis carinii	80.9%
C[C@H](CO)[C@@H](OC(=O)NCCCCNCCN)[C@@H]1OC(C(=O)O)=C[C@H](N=C(N)N)[C@H]1NC(=O)O			Sialidase		Victoria	IC50	Influenza B virus	0.04 µM
Clc1cc(CN2CCCNCCNCCCNCC2)cc(Cl)n1		CXCR4-D171N	CXCR4			IC50		5.3 µM
C/C(=N\NC(=S)NNC(=S)Nc1cccc(C(F)(F)F)c1)c1ccccn1			Ribonucleotide reductase			IC50	Herpes simplex virus 1	>5 µM
O=C1c2c(O)c(=O)c(-c3ncccn3)cn2CCN1Cc1cccc(Cl)c1	ELISA		Integrase			IC50	HIV-1	0.01–0.1 µM
O[C@@H]1[C@@H](O)[C@@H](NCc2ccccc2)[C@H]2O[C@H]2[C@H]1O			Beta-D-xylosidase	100 µM		inhibition	Aspergillus niger	21%
CNC(=O)c1cn2c(c(O)c1=O)C(=O)N(Cc1ccc(F)cc1)CC2	ELISA		Integrase			IC50	HIV-1	0.1–1 µM
CCCOc1cccc2nc(N)nc(N)c12			DHFR			IC50	Toxoplasma gondii	0.15 µM
Nc1nc(N)c2c(n1)Cc1c-2ccc(Cl)c1Cl			Dihydrofolate reductase		TYPE 1	IC50	Cryptosporidium parvum	>10 µM
CCCc1ccc(-c2ccc(C=C3SC(=S)NC3=O)s2)cc1			NS5 polymerase			IC50	Bovine viral diarrhea virus	≤1 µM
Cc1cccc2nc(N)nc(N)c12			DHFR			IC50	Toxoplasma gondii	4.98 µM
COC(=O)CCS(=O)(=O)N(C)c1cc(C#N)cc(C2(C(C)C)C(C#N)=C(N)Oc3n[nH]c(C)c32)c1	absorbance		Serine hydroxymethyltransferase			Ki	Plasmodium falciparum	0.455 µM
N#Cc1ccc(C(=O)Nc2nnc(NCc3cccs3)s2)cc1			Polymerase			IC50	Human cytomegalovirus	>25 µM
CO[C@H](C(=O)NO)[C@@H](CC(C)C)C(=O)N[C@H](C(=O)O)c1ccccc1	fluorescence		PfM1AAP			IC50	Plasmodium falciparum	0.078 µM
CC(C)(C)OC(=O)N[C@@H](CO)C(=O)N[C@@H](Cc1ccccc1)[C@H](O)C(=O)NCC1CCCCC1			Protease	1000 µM		inhibition	HIV-1	84.4%
COc1ccc([N+](=O)[O-])cc1NC(=S)NNC(=S)N/N=C(\C)c1ccccn1			Ribonucleotide reductase			IC50	Herpes simplex virus 1	>5 µM
CCCCCCCCCCCCC/C=C/[C@@H](O)[C@H](CO[C@@H]1O[C@H](CO)[C@H](O)[C@H](OS(=O)(=O)O)[C@H]1O)NC(=O)CCCCCCCCCCCCCCCCCCCCCCC			Sialidase	200 µM	H3N2 A/TEXAS/1/77	inhibition	Influenza A virus	98.4%
CCCCCCN(CCCCCC)C(=O)O[C@@H]([C@@H]1OC(C(=O)O)=C[C@H](N)[C@H]1NC(=O)O)[C@H](C)CO			Sialidase		Victoria	IC50	Influenza B virus	2.2 µM
O=C(/C=C/c1ccccc1Cl)Nc1nnc(NCCNc2ccccc2)s1			Polymerase			IC50	Human cytomegalovirus	>25 µM
COc1ccc(OC)c(CCc2sc3nc(N)nc(N)c3c2C)c1			Dihydrofolate reductase		TYPE 2	IC50	Cryptosporidium parvum	>10 µM
O=C(/C=C/c1ccccc1)Nc1nnc(NCC2CCCCC2)s1			Polymerase			IC50	Human cytomegalovirus	>25 µM
N#CC1=C(N)Oc2[nH]ncc2C1(c1cc(Cl)cc(Cl)c1)C1CCC1	absorbance		Serine hydroxymethyltransferase			Ki	Plasmodium falciparum	0.348 µM
O=C(O)CP(=O)(O)O			DNA polymerase	1 µg/mL		inhibition	Epstein-Barr virus	49.2%
CCOC(=O)N1CCN(C(=O)c2ccc(N(C)Cc3ccc4nc(N)nc(N)c4n3)cc2)CC1			Dihydrofolate reductase		TYPE 1	IC50	Cryptosporidium parvum	3.2 µM
O=C(O)c1ccc(N2C(=O)C(=Cc3ccc(-c4ccc(Br)cc4)o3)SC2=S)cc1			NS5 polymerase			IC50	Bovine viral diarrhea virus	≤1 µM
CN(Cc1ccc2nc(N)nc(N)c2n1)c1ccc(Cl)c(Cl)c1			Dihydrofolate reductase		TYPE 2	IC50	Cryptosporidium parvum	0.02 µM
O=C(O)CCN1C(=O)C(=Cc2ccc(-c3cc4ccc(OCc5ccccc5)cc4o3)o2)SC1=S			NS5 polymerase			IC50	Bovine viral diarrhea virus	≤1 µM
CSCCCN1C(=O)Cc2ccccc2C1=O			Protease		Serotype 14	IC50	Rhinovirus	98.3 µM
FC(F)(F)c1cccc(N2CCN(c3cncc(-c4ccccc4Oc4ccccc4)n3)CC2)c1			UL97 kinase	10 µM		inhibition	Cytomegalovirus	>15%
Oc1cc(O)c2c(c1)O[C@H](c1cc(O)c(O)c(O)c1)[C@@H](O)C2			DNA polymerase			IC50	Epstein-Barr virus	8.1 µg/mL
Fc1cccc(-c2cncc(N3CCN(c4ccncc4)CC3)n2)c1			UL97 kinase			IC50	Cytomegalovirus	<100 µM
O[C@@H]1[C@@H](O)[C@@H](NCc2ccc(C(F)(F)F)cc2)[C@@H]2O[C@@H]2[C@H]1O			Amyloglucosidase	100 µM		inhibition	Aspergillus niger	38%
C[C@H](CO)[C@@H](OC(=O)N1CCNCC1)[C@@H]1OC(C(=O)O)=C[C@H](N=C(N)N)[C@H]1NC(=O)O			Sialidase		H3N2 AICHI	IC50	Influenza A virus	0.038 µM
COc1ccccc1CC1CCc2nc(N)nc(N)c2C1			Dihydrofolate reductase		TYPE 2	IC50	Cryptosporidium parvum	0.18 µM
CC(C)(C)OC(=O)N[C@@H](Cc1ccccc1)[C@H](O)C(=O)N1CCC[C@H]1C(=O)NCC1CCCCC1			Protease	1000 µM		inhibition	HIV-1	42.5%
Nc1nc(N)c2c(n1)CCC(c1ccccc1)C2			Dihydrofolate reductase		TYPE 1	IC50	Cryptosporidium parvum	>10 µM
CC1(C)N=C(N)N=C(N)N1c1ccc(-c2ccc3c(Cl)c(Cl)ccc3c2)cc1			DHFR			IC50	Pneumocystis carinii	3 µM
COc1cc(-c2sc3nc(N)nc(N)c3c2C)cc(OC)c1OC			Dihydrofolate reductase		TYPE 2	IC50	Cryptosporidium parvum	>10 µM
C/C(=N\NC(=S)NNC(=S)Nc1ccc(Cl)c([N+](=O)[O-])c1)c1ccccn1			Ribonucleotide reductase			IC50	Herpes simplex virus 1	>5 µM

9 of the rows above, restated:

structure | method | changes | protein | tested at | strain | measure | organism | result
CC(C)(C)OC(=O)N[C@@H](Cc1ccccc1)[C@H](O)C(=O)N1CCC[C@H]1C(=O)NCC1CCCCC1 |  |  | Protease | 1000 µM |  | inhibition | HIV-1 | 42.5%
N#CC1=C(N)Oc2[nH]ncc2C1(c1cc(Cl)cc(Cl)c1)C1CCC1 | absorbance |  | Serine hydroxymethyltransferase |  |  | Ki | Plasmodium falciparum | 0.348 µM
CC[C@@H](C)[C@H](NC(=O)[C@@H]1CCCN1C(=O)[C@@H](O)[C@H](CC1CCCCC1)NC(=O)[C@H](CC(N)=O)NC(=O)OCC1c2ccccc2-c2ccccc21)C(=O)N[C@H](C(N)=O)C(C)C |  |  | Protease | 5 µM |  | inhibition | HIV-1 | 99%
O[C@@H]1[C@@H](O)[C@@H](NCc2ccccc2)[C@H]2O[C@H]2[C@H]1O |  |  | Beta-D-xylosidase | 100 µM |  | inhibition | Aspergillus niger | 21%
COc1cc(-c2sc3nc(N)nc(N)c3c2C)cc(OC)c1OC |  |  | Dihydrofolate reductase |  | TYPE 2 | IC50 | Cryptosporidium parvum | >10 µM
CC(=O)Nc1ccc(C(=O)O)cc1 |  |  | DHPS | 1000 µM |  | inhibition | Pneumocystis carinii | 80.9%
CO[C@H](C(=O)NO)[C@@H](CC(C)C)C(=O)N[C@H](C(=O)O)c1ccccc1 | fluorescence |  | PfM1AAP |  |  | IC50 | Plasmodium falciparum | 0.078 µM
CC1(C)N=C(N)N=C(N)N1c1ccc(-c2ccc3c(Cl)c(Cl)ccc3c2)cc1 |  |  | DHFR |  |  | IC50 | Pneumocystis carinii | 3 µM
CC(C)(C)OC(=O)N[C@@H](CO)C(=O)N[C@@H](Cc1ccccc1)[C@H](O)C(=O)NCC1CCCCC1 |  |  | Protease | 1000 µM |  | inhibition | HIV-1 | 84.4%

An empty or dashed field is not shown. Two numbers with a dash give a range or band. Percent inhibition refers to the dose given; in toxicity tests it is the harm to the cells. ICn: concentration for n% inhibition. Fold resistance: result on the changed form divided by that on wild type.